In article PMC8033486 (Frontiers in Pharmacology, 2021):
Where two headings read alike, the source gives them in different places.

Legend:
SARS-CoV-2 = conditions: for IC50 (Mean +/- SD): interferons, Vero E6, cytopathic effect 3 days after infection
Vero E6 cells = conditions: interferons; Vero E6, no virus, 3 days

Interferon-2α was tested, and the “Inhibition of SARS-CoV-2-induced cytopathic effect, result in words” value (SARS-CoV-2; Vero E6) was “displayed antiviral activity”, the “IC50 (Mean +/- SD)” value (SARS-CoV-2) was 8.1+/−0.7 × 10^2 IU/mL and the “IC50 (Mean +/- SD)” value (SARS-CoV-2; listed as Interferon 2 alpha) was 8.1+/-0.7 × 10^2 IU/mL. For the same substance, the CC50 (Vero E6 cells) was > 100 × 10^2 IU/mL.
